Laboratory results from patent US20240132578A1.

B1: PGT-141 (4964_G22; 4993_K13) (antibody, V domains shown)
VH: QVQLVQSGPEVKKPGSSVKVSCKASGNTFSKYDVHWVRQATGQGLEWVGWMSHEGDKTESAQRFKGRVTFTRDTSASTAYMELRGLTSDDTAIYYCTRGSKHRLRDYVLYDDYGLINYQEWNDYLEFLDVWGHGTAVTVSS
VL: DTVVTQSPLSLPVTPGEAASMSCSSTQSLRHSNGANYLAWYQHKPGQSPRLLIRLGSQRASGVPDRFSGSGSGTHFTLKISRVEAEDAAIYYCMQGLNRPWTFGKGTKLEIK
B2: PGT-142 (4995_E20) (antibody, V domains shown)
VH: QVQLVQSGPEVKKPGSSVKVSCKASGNTFSKYDVHWVRQATGQGLEWVGWISHERDKTESAQRFKGRVTFTRDTSATTAYMELRGLTSDDTAIYYCTRGSKHRLRDYVLYDDYGLINYQEWNDYLEFLDVWGHGTAVTVSS
VL: DTVVTQSPLSLPVTPGEAASMSCSSTQSLRHSNGANYLAWYQHKPGQSPRLLIRLGSQRASGVPDRFSGSGSGTHFTLKISRVEAEDAAIYYCMQGLNRPWTFGKGTKLEIK
B3: PGT-143 (4980_N08) (antibody, V domains shown)
VH: QVQLEQSGAEVKKPGSSVKVSCKASGNTFSKYDVHWVRQATGQGLEWVGWMSHEGDKTESAQRFKGRVTFTRDTSASTAYMELRGLTSDDTAIYYCTRGSKHRLRDYVLYDDYGLINYQEWNDYLEFLDVWGHGTAVTVSS
VL: DTVVTQSPLSLPVTPGEAASMSCTSTQSLRHSNGANYLAWYQHKPGQSPRLLIRLGSQRASGVPDRFSGSGSGTHFTLKISRVEPEDAAIYYCMQGLNRPWTFGKGTKLEIK
B4: PGT-144 (4970_K22) (antibody, V domains shown)
VH: QVQLVQSGAEVKKPGSSVKVSCKASGNTFRKYDVHWVRQATGQGLEWVGWMSHEGDKTESAQRFKGRVSFTRDNSASTAYIELRGLTSDDTAIYYCTGGSKHRLRDYVLYDDYGLINQQEWNDYLEFLDVWGHGTAVTVSS
VL: DTVVTQSPLSLSVTPGEAASMSCTSTQSLRHSNGANYLAWYQHKPGQSPRLLIRLGSQRASGVPDRFSGSGSGTHFTLKISRVEADDAAIYYCMQGLNRPWTFGKGTKLEIK
B5: 5123_A06 (PGT-125) (antibody, V domains shown)
VH: QSQLQESGPRLVEASETLSLTCNVSGESTGACTYFWGWVRQAPGKGLEWIGSLSHCQSFWGSGWTFHNPSLKSRLTISLDTPKNQVFLKLTSLTAADTATYYCARFDGEVLVYNHWPKPAWVDLWGRGIPVTVSS
VL: QSALTQPPSASGSPGQSITISCNGTATNFVSWYQQFPDKAPKLIIFGVDKRPPGVPDRFSGSRSGTTASLTVSRLQTDDEAVYYCGSLVGNWDVIFGGGTTLTVL
B6: 5141_B17 (PGT-126) (antibody, V domains shown)
VH: QPQLQESGPGLVEASETLSLTCTVSGDSTAACDYFWGWVRQPPGKGLEWIGGLSHCAGYYNTGWTYHNPSLKSRLTISLDTPKNQVFLKLNSVTAADTAIYYCARFDGEVLVYHDWPKPAWVDLWGRGTLVTVSS
VL: QSALTQPPSASGSPGQSISISCTGTSNRFVSWYQQHPGKAPKLVIYGVNKRPSGVPDRFSGSKSGNTASLTVSGLQTDDEAVYYCSSLVGNWDVIFGGGTKLTVL
B7: 5136_H01 (PGT-131) (antibody, V domains shown)
VH: QVQLQESGPGLVKPSETLSLTCTVSGDSINTGHHYWGWVRQVPGKGPEWIAHIHYNTAVLHNPALKSRVTISIFTLKNLITLSLSNVTAADTAVYFCVRSGGDILYYIEWQKPHWFYPWGPGILVTVSS
VL: QSALTQPPSASGSLGQSLTISCSGTGSDIGSWNFVSWYQQFPGRAPNLIIFEVNRRRSGVPDRFSGSKSGNTASLTVSGLRSEDEAEYFCSSLSGRWDIVFGGGTKVTVL
B8: 4970_K22 (PGT-144) (antibody, V domains shown)
VH: QVQLVQSGAEVKKPGSSVKVSCKASGNTFRKYDVHWVRQATGQGLEWVGWMSHEGDKTESAQRFKGRVSFTRDNSASTAYIELRGLTSDDTAIYYCTGGSKHRLRDYVLYDDYGLINQQEWNDYLEFLDVWGHGTAVTVSS
VL: DTVVTQSPLSLSVTPGEAASMSCTSTQSLRHSNGANYLAWYQHKPGQSPRLLIRLGSQRASGVPDRFSGSGSGTHFTLKISRVEADDAAIYYCMQGLNRPWTFGKGTKLEIK
B9: 5147_N06 (PGT-130) (antibody, V domains shown)
VH: QVQLQESGPGLVKPAETLSLTCSVSGESINTGHYYWGWVRQVPGKGLEWIGHIHYTTAVLHNPSLKSRLTIKIYTLRNQITLRLSNVTAADTAVYHCVRSGGDILYYYEWQKPHWFSPWGPGIHVTVSS
VL: QSALTQPPSASGSLGQSVTISCNGTSSDIGGWNFVSWYQQFPGRAPRLIIFEVNKRPSGVPGRFSGSKSGNSASLTVSGLQSDDEGQYFCSSLFGRWDVVFGGGTKLTVL

Tests used:
Assay in all cases: cell-based or functional assay
[1] = molecular target: panel of 22 HIV-1 pseudoviruses of Table 52
[2] = molecular target: HIV-1 clade F Env pseudoviruses of the cross-clade 162-pseudovirus panel (n=15)
[3] = molecular target: 162-pseudovirus panel representing all major circulating HIV-1 subtypes
[4] = molecular target: HIV-1 clade B Env pseudoviruses of the cross-clade 162-pseudovirus panel (n=31)
[5] = molecular target: HIV-1 clade A Env pseudoviruses of the cross-clade 162-pseudovirus panel (n=26)
[6] = molecular target: HIV-1 clade G Env pseudoviruses of the cross-clade 162-pseudovirus panel (n=15)
[7] = molecular target: HIV-1 Env of all pseudoviruses of the cross-clade 162-pseudovirus panel (n = 162)
[8] = molecular target: HIV-1 clade D Env pseudoviruses of the cross-clade 162-pseudovirus panel (n=25)
[9] = molecular target: HIV-1 clade AG Env pseudoviruses of the cross-clade 162-pseudovirus panel (n=10)
[10] = molecular target: HIV-1 clade AE Env pseudoviruses of the cross-clade 162-pseudovirus panel (n=10)
[11] = molecular target: HIV-1 clade C Env pseudoviruses of the cross-clade 162-pseudovirus panel (n=27)
[12] = molecular target: HIV-1 Env of the clade F pseudoviruses of the cross-clade 162-pseudovirus panel (n = 15)
[13] = molecular target: All HIV-1 Env pseudoviruses of the cross-clade 162-pseudovirus panel (n=162)

Row | Binder | median IC50, pseudovirus neutralization [1] | Median IC50 (µg/ml) against viruses neutralized with an IC50 <50 µg/ml (section D) [2] | Median IC50 (µg/ml) against viruses neutralized with an IC50 <50 µg/ml (section D) [4] | Median IC50 (µg/ml) against viruses neutralized with an IC50 <50 µg/ml (section D) [5] | Median IC50 (µg/ml) against viruses neutralized with an IC50 <50 µg/ml (section D) [6] | Median IC50 (µg/ml) against viruses neutralized with an IC50 <50 µg/ml [7] | Median IC50 (µg/ml) against viruses neutralized with an IC50 <50 µg/ml (section D) [8] | Median IC50 (µg/ml) against viruses neutralized with an IC50 <50 µg/ml (section D) [9] | Median IC50 (µg/ml) against viruses neutralized with an IC50 <50 µg/ml (section D) [10] | Median IC50 (µg/ml) against viruses neutralized with an IC50 <50 µg/ml (section D) [11] | further results
1 | B1 | 0.5 µg/mL | – | – | – | – | – | – | – | – | – | –
2 | B2 | 0.25 µg/mL | – | – | – | – | – | – | – | – | – | –
3 | B3 | 0.37 µg/mL | – | – | – | – | – | – | – | – | – | –
4 | B4 | 0.16 µg/mL | – | – | – | – | – | – | – | – | – | –
5 | B5 | – | 0.37 µg/mL | 0.13 µg/mL | 0.07 µg/mL | 0.05 µg/mL | 0.04 µg/mL | 0.87 µg/mL | 0.05 µg/mL | 0.22 µg/mL | 0.18 µg/mL | Median IC50 (µg/ml) against viruses neutralized with an IC50 <50 µg/ml [3]: 0.04 µg/mL; Percent viruses neutralized, IC50 < 1 µg/ml [3]: 40%
6 | B6 | – | 1 µg/mL | 0.17 µg/mL | 0.06 µg/mL | 0.17 µg/mL | 0.04 µg/mL | 0.33 µg/mL | 0.06 µg/mL | 19.6 µg/mL | 0.96 µg/mL | Median IC50 (µg/ml) against viruses neutralized with an IC50 <50 µg/ml [3]: 0.04 µg/mL; Percent viruses neutralized, IC50 < 0.1 µg/ml [3]: 40%; Percent viruses neutralized, IC50 < 1 µg/ml [3]: 50%; Percent viruses neutralized, IC50 < 50 µg/ml [3]: 60%; Median IC50 (µg/ml) against viruses neutralized with an IC50 <50 µg/ml [12]: 0.05 µg/mL
7 | B7 | – | 1.92 µg/mL | 0.5 µg/mL | 0.73 µg/mL | – | – | 2.67 µg/mL | 0.16 µg/mL | 0.21 µg/mL | 15.8 µg/mL | Percent viruses neutralized, IC50 < 50 µg/ml [3]: 40%; Median IC50 (µg/ml) against viruses neutralized with an IC50 <50 µg/ml [12]: 0.55 µg/mL
8 | B8 | – | – | – | – | – | – | – | – | – | – | Percent viruses neutralized, IC50 < 0.1 µg/ml [3]: 3%; Median IC50 (µg/ml) against all viruses [4]: > 50 µg/mL; Median IC50 (µg/ml) against all viruses [6]: > 50 µg/mL; Median IC50 (µg/ml) against all viruses [13]: > 50 µg/mL; Median IC50 (µg/ml) against all viruses [8]: > 50 µg/mL; Median IC50 (µg/ml) against all viruses [9]: > 50 µg/mL; Median IC50 (µg/ml) against all viruses [10]: > 50 µg/mL
9 | B9 | – | 4.84 µg/mL | 0.77 µg/mL | 4.99 µg/mL | 28.1 µg/mL | 0.18 µg/mL | 3.18 µg/mL | 0.07 µg/mL | 0.08 µg/mL | 2.67 µg/mL | –
